Anti-infective test results gathered from many reports (values: NIAID ChemDB through PubChem).

All rows: growth or infection tests; species: HIV-1; cells: MT-4; read-out: EC50

a–b is a range or a potency band. ECn: concentration that inhibits the pathogen or its effect by n%. Lines come from different laboratories, so protocols vary. An empty or dashed field is not shown.

SMILES	strain or isolate	mutations	method	conditions	value
Cc1cc(C)cc(C(=O)c2cccnc2Nc2ccncc2)c1	IIIB	-	MTT	-	>32.34 µM
CC(C)[C@H](NC(=O)OCc1ccccc1)C(=O)N[C@@H](Cc1ccccc1)C(O)[C@H](Cc1ccccc1)NC(=O)[C@@H](NC(=O)OCc1ccccc1)C(C)C	IIIB	-	cytopathic effect / MTT	-	0.02–0.4 µM
Cc1nc(CCCCCCC(=O)c2ccccc2)n2ncccc12	RF	-	cytopathic effect	-	0.59 µM
Cc1cc(C#N)cc(C)c1Oc1ncc([N+](=O)[O-])c(Nc2ccc(C#N)cc2)n1	IIIB	-	MTT	-	0.0621 µM
O=c1[nH]cnc2c1ncn2CCOCP(=O)(O)O	IIIB	-	cytopathic effect / trypan blue	-	>125 µM
CC(C)[C@H](NC(=O)OCc1ccccc1)C(=O)N[C@@H](Cc1ccccc1)[C@@H](O)[C@H](O)[C@H](Cc1ccccc1)NC(=O)[C@@H](NC(=O)OCc1ccccc1)C(C)C	IIIB	-	cytopathic effect / MTT	-	0.02–0.4 µM
C1CNCCNCC(CCC2CNCCNCCCNCCNC2)CNCCNC1	IIIB	-	cytopathic effect / MTT	4 d	0.13 µM
CCc1cc(CCc2nc3cccc(F)c3o2)c(=S)[nH]c1C	IIIB	-	p24	-	<0.2 µM
CC(=O)c1ccccc1NC(C(N)=O)c1c(Cl)cccc1Cl	DLV-resistant MF (RT-P236L)	RT-P236L	p24	-	<0.08 µM
Cc1cc(C)cc(C(=O)c2cccnc2Nc2ccc(S(N)(=O)=O)cc2)c1	IIIB	-	MTT	-	>176 µM
S=C(NCCc1ccccc1)Nc1ccc(Cl)cn1	IIIB	-	cytopathic effect	-	0.03 µM
COc1ccc2c(C)nc(CCCCCCC(=O)c3ccccc3)n2n1	RF	-	cytopathic effect	-	9.3 µM
N#Cc1ccc(Nc2nc(Oc3c(Cl)cccc3Cl)ncc2[N+](=O)[O-])cc1	RES056	-	MTT	-	>207 µM
Cc1cn([C@H]2C[C@H](N=[N+]=[N-])[C@@H](CO)O2)c(=O)[nH]c1=O	IIIB	-	cytopathic effect / XTT	-	0.01 µM
N#Cc1ccc(Nc2nc(Oc3c(Br)cc(Br)cc3Br)ncc2NC(=O)C(F)(F)F)cc1	IIIB	-	MTT	-	0.0346 µM
S=C(NCCc1ccccn1)Nc1ccc(Br)cn1	T3-16(RT-Y181C)	RT-Y181C	cytopathic effect / XTT	-	0.7 µM
CN1C(=O)N(Cc2ccccc2)S(=O)(=O)c2cscc21	IIIB	-	syncytia	-	7.1 µM
O=C1CCC(c2ccccc2)C(=O)N1CCCCN1CCN(c2ccccc2O)CC1	-	-	MTT	-	>100 µM
Cc1cc(C#N)cc(C)c1Oc1ccc(N)c(NC2CCN(Cc3ccc(S(C)(=O)=O)cc3)CC2)n1	IIIB	-	MTT	-	0.047 µg/mL
CCc1cc(CCc2nc3c(F)cccc3o2)c(=S)[nH]c1C	IIIB	-	p24	-	<0.1 µM
Nc1ncnc2c1ncn2C[C@@H](CO)OCP(=O)(O)O	IIIB	-	cytopathic effect / antigen / trypan blue	-	>125 µM
Cc1cn([C@H]2C=C[C@@H](CO)O2)c(=O)[nH]c1=O	IIIB	-	cytopathic effect / MTT	-	0.31 µM
Cc1cc(C)cc(C(=O)c2cccnc2Nc2ccc(C(F)(F)F)cc2)c1	IIIB	-	MTT	-	>106 µM
Fc1cccc(F)c1[C@H]1SCc2nc3ccccc3n21	NDK	-	cytopathic effect	-	0.55 µM
Nc1ccn([C@@H]2CS[C@H](CO)O2)c(=O)n1	IIIB	-	MTT	-	2.24 µM
Cc1cc(C)c(Oc2ccc(N)c(NC3CCN(Cc4ccc(C(N)=O)cc4)CC3)n2)c(C)c1	IIIB	Resistant strain (K103N + Y181C)	MTT	-	3.9 µM
CCc1cc(CCc2nc3c(F)cccc3o2)c(=O)[nH]c1C	IIIB	-	p24	-	<0.375 µM
Cc1cc(C#N)cc(C)c1Oc1ncc(N)c(Nc2ccc(C#N)cc2)n1	IIIB	-	MTT	-	0.0025 µM
Cc1csc(NC(=S)NCCc2c(F)cccc2F)n1	IIIB	-	cytopathic effect	-	0.025 µM
Nc1ncc2ncn(CCOCP(=O)(O)O)c2n1	IIIB	-	cytopathic effect / trypan blue	-	45 µM
O=C1CCC(c2ccccc2)C(=O)N1CCCN1CCN(c2ncccn2)CC1	-	-	MTT	-	>100 µM
Cc1ccnc2c1NC(=O)c1cccnc1N2C1CC1	118(RT-L100I)	RT-L100I	cytopathic effect / XTT	-	1.1 µM
Cc1cc(C)cc(C(=Nc2ccc(C(N)=O)cc2)c2cccnc2Cl)c1	IIIB	-	MTT	-	10.94 µM
Cc1cc(C)c(Oc2ccc([N+](=O)[O-])c(NC3CCN(Cc4ccc(C(N)=O)cc4)CC3)n2)c(C)c1	IIIB	Resistant strain (K103N + Y181C)	MTT	-	5.8 µM
Cc1nc(CCCCCCC(=O)c2ccccc2)n2nc(Cl)ccc12	RF	-	cytopathic effect	-	<0.03 µM
CC(C)[C@H](NC(=O)c1ccccn1)C(=O)N[C@@H](Cc1ccccc1)[C@H](O)[C@H](O)[C@H](Cc1ccccc1)NC(=O)[C@@H](NC(=O)c1ccccn1)C(C)C	P19 (PR-R8Q)	PR-R8Q	p24	-	4 µM
O=C1CCC(c2ccccc2)C(=O)N1CCCCN1CCN(c2ccccn2)CC1	-	-	MTT	-	>100 µM
Cc1cc(C)c(Nc2ccc([N+](=O)[O-])c(NC3CCN(Cc4ccc(S(N)(=O)=O)cc4)CC3)n2)c(C)c1	IIIB	Resistant strain (K103N + Y181C)	MTT	-	>5.9 µM
C=C1[C@H](CO)[C@@H](O)C[C@@H]1n1cnc2c(=O)[nH]c(N)nc21	IIIB	-	MTT	-	0.0022 µM
CCN1C(=O)N(Cc2ccccc2)S(=O)(=O)c2cscc21	ADP/141	RT-D67N K70R T215F K219Q	syncytia	-	3.1 µM
c1cnc2c(c1)cc(CN1CCCNCCNCCCNCC1)c1cccnc12	IIIB	-	cytopathic effect / MTT	6 d	1.59 µM
COC(=O)[C@@H]1CCCN1P(=O)(OC[C@H]1O[C@@H](n2cc(C)c(=O)[nH]c2=O)CC1N=[N+]=[N-])Oc1ccccc1	IIIB	-	MTT	-	0.992 µM
C=C1C[C@@]23CCC4=C(C)C(=O)CC[C@@]4(C)[C@@H]2C[C@@H]1[C@@H](O)C3=O	NL4-3	-	luciferase / luminescence	-	>44 µM
Cc1nc(CCCCCCC(=O)c2ccccc2)n2nc(-n3ccnc3)ccc12	RF	-	-	-	0.01 µM
C1CNCCNCC(CCOCCOCCC2CNCCNCCCNCCNC2)CNCCNC1	IIIB	-	cytopathic effect / MTT	4 d	3.2 µM
COc1cccc(F)c1CCNC(=S)Nc1nccs1	IIIB	-	cytopathic effect	-	0.32 µM
Cc1cc(C)cc(C(=O)c2cccnc2Nc2ccc(CC#N)cc2)c1	IIIB	-	MTT	-	>97.48 µM
N#Cc1ccc(Nc2nc(Oc3c(Cl)cccc3Cl)ncc2N)cc1	RES056	-	MTT	-	>33.04 µM
Cc1cc(C)c(Nc2ccc([N+](=O)[O-])c(NC3CCN(Cc4ccc(C(N)=O)cc4)CC3)n2)c(C)c1	IIIB	-	MTT	-	0.0096 µg/mL
O=c1[nH]cnc2c1ncn2[C@H]1CC[C@@H](CO)O1	ROD	-	MTT	-	4.953 µM
N#CCN1C(=O)N(Cc2cccc(F)c2)S(=O)(=O)c2cscc21	IIIB	-	syncytia	-	0.09 µM
Cc1cc(C)c(Oc2ccc(N)c(NC3CCN(Cc4ccncc4)CC3)n2)c(C)c1	IIIB	-	MTT	-	0.084 µg/mL
CCc1cc(CCc2nc3c(C)cccc3o2)c(=O)[nH]c1C	IIIB	-	p24	-	<0.1 µM
O=C1N(Cc2ccc(CO)cc2)[C@H](Cc2ccccc2)[C@H](O)[C@@H](O)[C@@H](Cc2ccccc2)N1Cc1ccc(CO)cc1	NL4-3	PR-M46I L63P	p24	-	<0.4 µM
O=C1CCC(c2ccccc2)C(=O)N1	-	-	MTT	-	>100 µM
Fc1cccc(F)c1[C@@H]1SCc2nc3ccccc3n21	NDK	-	cytopathic effect	-	0.79 µM
CC(C)(C)NC(=O)[C@@H]1C[C@@H]2CCCC[C@@H]2CN1C[C@@H](O)[C@H](Cc1ccccc1)NC(=O)[C@H](CC(N)=O)NC(=O)c1ccc2ccccc2n1	NL4-3	PR-L10R M46I	p24	-	<0.025 µM
C=C(C)[C@H]1CC[C@]23CC(=C)[C@H](C[C@H]2[C@]1(C)CCC(=O)OC)[C@@H](O)C3=O	NL4-3	-	luciferase / luminescence	-	>44 µM
C1CNCCNCCNCCNCCN1	IIIB	-	cytopathic effect / MTT	-	>8.3 µM
CNC(=O)c1cc(F)ccc1CNC(=O)c1nc(N2CCCCS2(=O)=O)c2cccnc2c1O	IIIB	-	p24	-	<0.015 µM
C=C1C[C@@]23CC[C@H]4[C@@](C)(CCC(=O)[C@]4(C)CO)[C@@H]2C[C@@H]1[C@@H](O)C3=O	NL4-3	-	luciferase / luminescence	-	>44 µM
N#Cc1ccc(Nc2nc(Oc3c(Br)cc(Br)cc3Br)ncc2[N+](=O)[O-])cc1	IIIB	-	MTT	-	3.89 µM
Cc1cc(C)c(Oc2ccc([N+](=O)[O-])c(NC3CCN(Cc4ccc(S(C)(=O)=O)cc4)CC3)n2)c(C)c1	IIIB	-	MTT	-	0.018 µg/mL
C(CCC1CNCCNCCCNCCNC1)CCC1CNCCNCCCNCCNC1	IIIB	-	cytopathic effect / MTT	5 d	0.67 µM
CC(C)=CCN1Cc2cc(Cl)cc3[nH]c(=S)n(c23)C[C@@H]1C	118(RT-L100I)	RT-L100I	cytopathic effect / XTT	-	>10 µM
CCc1cc(CCc2nc3c(Cl)cccc3o2)c(=O)[nH]c1C	IIIB	-	p24	-	<0.1 µM
Cc1nc(CCCCCCC(=O)c2ccccc2)n2nc(-n3cncn3)ccc12	RF	-	cytopathic effect	-	0.44 µM
C1CNCCNCCCNCCNC1	RF	-	cytopathic effect / MTT	-	106 µM
CCc1cc(CCc2nc3c(C)ccc(C)c3o2)c(=S)[nH]c1C	IIIB	-	p24	-	<0.2 µM
C1CNCCNCC(CCOCCOCCC2CNCCNCCCNCCNC2)CNCCNC1	IIIB	-	cytopathic effect / MTT	4 d	3.18 µM
Fc1cccc(F)c1C1SCc2nc3ccccc3n21	RF	-	cytopathic effect	-	0.55 µM
CNc1ccc2c(C)nc(CCCCCCC(=O)c3ccccc3)n2n1	RF	-	cytopathic effect	-	>25 µM
CCc1cc(NCc2nc3c(Cl)ccc(Cl)c3o2)c(=O)[nH]c1C	IIIB	-	cytopathic effect / XTT	-	0.065 µM
C1CNCCNCC(CCCC2CNCCNCCCNCCNC2)CNCCNC1	RF	-	cytopathic effect / MTT	4 d	0.1 µM
Cc1cc(Br)cc(C)c1Oc1ncc(N)c(Nc2ccc(C#N)cc2)n1	IIIB	-	MTT	-	0.0463 µM
O=c1ccn(C[C@@H](CO)OCP(=O)(O)O)c(=O)[nH]1	IIIB	-	cytopathic effect / trypan blue	-	>250 µM
Cc1cn(-c2ccc3c(C)nc(CCCCCCC(=O)c4ccccc4)n3n2)cn1	RF	-	-	-	0.4 µM

For reference, 6 entries again:

SMILES | strain or isolate | mutations | method | conditions | value
Nc1ccn([C@@H]2CS[C@H](CO)O2)c(=O)n1 | IIIB | - | MTT | - | 2.24 µM
CNc1ccc2c(C)nc(CCCCCCC(=O)c3ccccc3)n2n1 | RF | - | cytopathic effect | - | >25 µM
Cc1nc(CCCCCCC(=O)c2ccccc2)n2ncccc12 | RF | - | cytopathic effect | - | 0.59 µM
CCc1cc(CCc2nc3c(Cl)cccc3o2)c(=O)[nH]c1C | IIIB | - | p24 | - | <0.1 µM
COc1cccc(F)c1CCNC(=S)Nc1nccs1 | IIIB | - | cytopathic effect | - | 0.32 µM
CC(C)=CCN1Cc2cc(Cl)cc3[nH]c(=S)n(c23)C[C@@H]1C | 118(RT-L100I) | RT-L100I | cytopathic effect / XTT | - | >10 µM